Experimental findings from patent US20220089695A1 are described below.

Where “and” joins values, the source holds several entries; their conditions need not be identical. Equal entries are not always repeated.

In assay [1] the target is SARS-CoV-2 Spike (S) protein, recombinant, construct not stated at the place (SARS-CoV-2) (UniProt P0DTC2).
For assay [2] the target is unchanged. This is another data set of the same source.

Take “DC-SIGN-Fc in combination with ACE2-Fc (from UniProt Q9BYF1 18-740; Q9NNX6 59-404)”: in assay [1], the percent blockade is 70% and 80%.
Turning to “L-SIGN-Fc in combination with ACE2-Fc (from UniProt Q9BYF1 18-740; Q9H2X3 71-399)”, the percent blockade in assay [1] is 70% and 80%. Further, in assay [2], the blocking of S protein binding (heat-map cell) stood at 10.2%.
